Results taken from patent US10533018B2, “Antimicrobial prochelators to target drug-resistant bacteria and methods of making and using the same” (Duke University, priority 2015, dated 2020).

System: K. pneumoniae clinical isolates 4 and 9
Assay: LC-MS detection of intact DB4-51 in bacterial culture
Format: cell-based
Details: 100 μM, 4 hours

With `O=C(Cc1ccccc1)N[C@@H]1C(=O)N2C(C(=O)O)=C(CSc3cccc[n+]3[O-])CS[C@H]12` [DB4-51, 2-((((6R,7R)-2-carboxy-8-oxo-7-(2-phenylacetamido)-5-thia-1-azabicyclo[4.2.0]oct-2-en-3-yl)methyl)thio)pyridine 1-oxide] the DB4-51 remained intact (Klebs isolate 4) was 90% and the DB4-51 remained intact (Klebs isolate 9) was “less than 15%”.
